Results of unrelated studies side by side (data: NIAID ChemDB).

All rows: host cell toxicity; cells: CEM; endpoint: CC50

Conditions beyond the fields shown may differ between rows. CCn: concentration that lowers growth or viability of the cells by n%. Blank or dashed fields: not listed here.

O=C(O)CCNC(=O)c1ccccc1SSc1ccccc1C(=O)NCCC(=O)O ; result: >120 µM
C[C@]12CC[C@H](O)C[C@@H]1CC[C@@H]1[C@@H]2CC[C@]2(C)C(=O)[C@H](Br)C[C@@H]12 ; method: trypan blue ; result: 2.6 µM
Nc1ncnc2c1ncn2[C@@H]1C=C(F)[C@H](CO)S1 ; method: MTT ; result: >100 µM
COc1ccc2c(c1)N(C(=O)OC(C)C)[C@@H](CSC)C(=S)N2 ; result: >58.8 µM
Nc1nc2c(ncn2[C@@H]2O[C@H](COP(=O)(O)O)[C@@H](O)[C@H]2O)c(=O)o1 ; method: MTT ; result: >500 µg/mL
CCC(NC(=O)C1CCC1C(=O)[C@@H](NC(=O)[C@@H](NC(=O)c1cnccn1)C1CCCCC1)C(C)(C)C)C(=O)C(=O)NC1CC1 ; result: >100 µM
Cc1cn([C@H]2C=C[C@@H](COP3(=O)OCc4cc(Br)ccc4O3)O2)c(=O)[nH]c1=O ; result: 64 µM
Cc1cn([C@H]2C[C@H](N=[N+]=[N-])[C@@H](CO)O2)c(=O)[nH]c1=O ; result: >0.008 µM
Nc1ccn([C@H]2C=C(F)[C@@H](CO)S2)c(=O)n1 ; method: MTT ; result: >100 µM
Nc1ccn([C@@H]2CS[C@H](CO)O2)c(=O)n1 ; result: 50 µM
Nc1ncnc2c1ncn2CCOCP(=O)(O)O ; result: 35.8 µM
CC(C)=CCN1Cc2cc(Cl)cc3[nH]c(=S)n(c23)C[C@@H]1C ; result: >31.1 µM
Nc1nc(=O)n([C@H]2C=C(F)[C@@H](CO)S2)cc1F ; method: MTT ; result: >100 µM
Cc1cn([C@H]2C=C[C@@H](COP3(=O)OCc4cc(CCC(=O)OCOC(=O)C(C)(C)C)ccc4O3)O2)c(=O)[nH]c1=O ; result: 24 µM
Nc1nc(N)c(Cc2c(N)nc(N)nc2OCCOCP(=O)(O)O)c(OCCOCP(=O)(O)O)n1 ; result: 200 µM
CCc1cc(NCc2nc3c(Cl)ccc(Cl)c3o2)c(=O)[nH]c1C ; result: >60 µM
C[C@@H](Cn1cnc2c(N)nc(N)nc21)OCP(=O)(O)O ; result: >300 µM
Cc1cc(NCCc2cccc3ccccc23)cc(=O)o1 ; method: MTT ; result: 76 µM
CC1(C)S[C@H]([C@H](NC(=O)Cc2ccccc2)C(=O)NCc2ccccc2)N[C@H]1C(=O)NCCNC(=O)[C@@H]1N[C@@H]([C@H](NC(=O)Cc2ccccc2)C(=O)NCc2ccccc2)SC1(C)C ; result: >100 µM
Cc1cn([C@@H]2O[C@H](CO[Si](C)(C)C(C)(C)C)[C@@H](O[Si](C)(C)C(C)(C)C)[C@H]2O)c(=O)n(CC(=O)ON)c1=O ; result: 8.8 µM
O=c1[nH]cnc2c1ncn2[C@H]1CC[C@@H](CO)O1 ; method: MTT ; result: >500 µg/mL
Nc1ncnc2c1ncn2CCOCP(=O)(O)O ; result: 56 µM
Cc1cc(S(=O)(=O)CCc2cccc3ccccc23)cc(=O)o1 ; method: MTT ; result: 83 µM
C=C(COCP(=O)(O)O)Cn1cnc2c(=O)[nH]c(N)nc21 ; result: ≥250 µM
Cc1cn([C@H]2C=C[C@@H](COP3(=O)OCc4cc(C=O)cc(C(C)(C)C)c4O3)O2)c(=O)[nH]c1=O ; result: 59 µM
CCc1cn([C@@H]2O[C@H](CO[Si](C)(C)C(C)(C)C)[C@@H](O)[C@H]2O[Si](C)(C)C(C)(C)C)c(=O)n(CC(=O)O)c1=O ; result: 20 µM
O=c1[nH]cnc2c1ncn2[C@@H]1C=C(F)[C@H](CO)S1 ; method: MTT ; result: >100 µM
Nc1nc2c(ncn2[C@H]2C[C@H](O)[C@@H](CO)O2)c(=O)o1 ; result: >500 µg/mL
Nc1nc2c(ncn2CCOCP(=O)(O)O)c(=O)[nH]1 ; result: ≥0.8 µM
CCOC(=O)c1cc(O)c(O)c(O)c1 ; method: cell count ; result: 58 µg/mL
Nc1nc2c(ncn2[C@H]2C=C[C@@H](CO)O2)c(=O)o1 ; result: 300 µg/mL
Cc1cccc(NC(=O)c2ccccc2SSc2ccccc2C(=O)Nc2cccc(C)c2)c1 ; result: 40 µM
CCc1c(S(=O)(=O)Cc2cccc3ccccc23)cc(C)oc1=O ; method: MTT ; result: 68 µM
Nc1ccn([C@@H]2O[C@H](CO)C[C@@H]2F)c(=O)n1 ; result: >23 µg/mL
Nc1nc2c(ncn2[C@H]2C=C[C@@H](CO)C2)c(=O)o1 ; method: MTT ; result: >500 µg/mL
Cc1cn([C@@H]2O[C@H](CO)C=C2F)c(=O)[nH]c1=O ; result: 9.7 µg/mL
Cc1cn([C@@H]2C=C(F)[C@H](CO)S2)c(=O)[nH]c1=O ; method: MTT ; result: ≥100 µM
Nc1ccn([C@H]2CC[C@@H](CO)O2)c(=O)n1 ; result: 10 µM
Nc1ccn([C@H]2CC[C@@H](CO)O2)c(=O)n1 ; result: >20 µg/mL
Nc1nc(=O)n([C@@H]2C=C(F)[C@H](CO)S2)cc1F ; method: MTT ; result: >100 µM
CCC(=O)c1ccc(NC(=O)c2ccccc2SSc2ccccc2C(=O)Nc2ccc(C(=O)CC)cc2)cc1 ; result: 105 µM
O=c1[nH]cnc2c1ncn2[C@H]1CC[C@@H](CO)O1 ; result: >500 µg/mL
Cc1cn([C@H]2C[C@H](N=[N+]=[N-])[C@@H](COC(=O)c3cccnc3)O2)c(=O)[nH]c1=O ; method: cell count ; result: >100 µg/mL
Nc1nc(=O)n([C@@H]2C=C[C@H](CO)O2)cc1F ; result: 7 µM
O=C(O)/C=C/c1ccc(O)c(O)c1.O=C(O)CCc1ccc(O)c(O)c1 ; method: cell count ; result: ≥100 µg/mL
Nc1nc2c(ncn2[C@@H]2C[C@H](COP(=O)(O)O)[C@@H](O)[C@H]2O)c(=O)o1 ; result: >500 µg/mL
CCOP(=O)(CO[C@H]1C[C@@H](n2cnc3c(Cl)nc(N)nc32)C(F)(F)C1)OCC ; result: >100 µM
CC(C)(C)[Si](C)(C)OC[C@H]1O[C@@H](n2cnc3c(=O)n(CC(=O)O)cnc32)[C@H](O[Si](C)(C)C(C)(C)C)[C@@H]1O ; result: ≥250 µM
Cc1cc(N[C@H](C)c2cccc3ccccc23)cc(=O)o1 ; method: MTT ; result: 83 µM
Cc1cn([C@H]2C=C(F)[C@@H](CO)S2)c(=O)[nH]c1=O ; method: MTT ; result: >100 µM
COC(=O)[C@@H](NC(=O)[C@@H](NC(=O)CC[C@H](O)[C@H](Cc1ccccc1)NC(=O)[C@H](C)NC(=O)[C@H](C)NC(=O)OCc1ccccc1)C(C)C)C(C)C ; result: >100 µM
S=C(S)N1CCOCC1 ; result: 42 µM
Cc1cn([C@@H]2O[C@H](CO)C[C@@H]2F)c(=O)[nH]c1=O ; result: 8 µg/mL
Cc1cn([C@H]2C[C@H](F)[C@@H]([C@@H](C)O)O2)c(=O)[nH]c1=O ; result: >100 µg/mL
Nc1nc2c(ncn2[C@@H]2C[C@H](OCP(=O)(O)O)CC2(F)F)c(=O)[nH]1 ; result: >100 µM
Cc1cc(S(=O)(=O)Cc2cccc3ccccc23)cc(=O)o1 ; method: MTT ; result: 5.4 µM
O=C(O)c1ccccc1SSc1ccccc1C(=O)O ; result: >100 µM
C[C@@H](Cn1cnc2c(N)ncnc21)OCP(=O)(O)O ; result: >300 µM

A second listing of 5 rows from above:

compound,method,result
Nc1ccn([C@H]2CC[C@@H](CO)O2)c(=O)n1,-,10 µM
Cc1cn([C@@H]2O[C@H](CO)C[C@@H]2F)c(=O)[nH]c1=O,-,8 µg/mL
S=C(S)N1CCOCC1,-,42 µM
Nc1nc2c(ncn2CCOCP(=O)(O)O)c(=O)[nH]1,-,≥0.8 µM
CCOP(=O)(CO[C@H]1C[C@@H](n2cnc3c(Cl)nc(N)nc32)C(F)(F)C1)OCC,-,>100 µM